Test results from ChEMBL document CHEMBL1124049, “Synthesis and biological characterization of pyridohomotropanes. Structure-activity relationships of conformationally restricted nicotinoids” (J Med Chem, 1988).

By UniProt entry, the sequences of proteins in these tests, tags left out. Where a name states a change or a piece, a line headed by the entry shows the natural chain unless it says otherwise.
UniProt P04757: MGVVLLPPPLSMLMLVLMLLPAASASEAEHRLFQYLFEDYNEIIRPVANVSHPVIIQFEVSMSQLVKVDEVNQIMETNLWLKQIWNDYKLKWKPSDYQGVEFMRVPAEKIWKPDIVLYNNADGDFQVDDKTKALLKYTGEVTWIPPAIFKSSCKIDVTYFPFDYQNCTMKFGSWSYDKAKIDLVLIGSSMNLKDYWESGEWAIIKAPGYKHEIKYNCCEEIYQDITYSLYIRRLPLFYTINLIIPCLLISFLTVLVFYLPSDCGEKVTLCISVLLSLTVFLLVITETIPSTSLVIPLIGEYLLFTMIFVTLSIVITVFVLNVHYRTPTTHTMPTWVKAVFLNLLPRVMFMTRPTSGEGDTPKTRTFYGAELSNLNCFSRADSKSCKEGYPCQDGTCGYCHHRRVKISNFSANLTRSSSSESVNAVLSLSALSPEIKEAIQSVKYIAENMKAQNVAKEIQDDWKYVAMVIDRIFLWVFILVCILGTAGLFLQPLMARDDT
UniProt P09483: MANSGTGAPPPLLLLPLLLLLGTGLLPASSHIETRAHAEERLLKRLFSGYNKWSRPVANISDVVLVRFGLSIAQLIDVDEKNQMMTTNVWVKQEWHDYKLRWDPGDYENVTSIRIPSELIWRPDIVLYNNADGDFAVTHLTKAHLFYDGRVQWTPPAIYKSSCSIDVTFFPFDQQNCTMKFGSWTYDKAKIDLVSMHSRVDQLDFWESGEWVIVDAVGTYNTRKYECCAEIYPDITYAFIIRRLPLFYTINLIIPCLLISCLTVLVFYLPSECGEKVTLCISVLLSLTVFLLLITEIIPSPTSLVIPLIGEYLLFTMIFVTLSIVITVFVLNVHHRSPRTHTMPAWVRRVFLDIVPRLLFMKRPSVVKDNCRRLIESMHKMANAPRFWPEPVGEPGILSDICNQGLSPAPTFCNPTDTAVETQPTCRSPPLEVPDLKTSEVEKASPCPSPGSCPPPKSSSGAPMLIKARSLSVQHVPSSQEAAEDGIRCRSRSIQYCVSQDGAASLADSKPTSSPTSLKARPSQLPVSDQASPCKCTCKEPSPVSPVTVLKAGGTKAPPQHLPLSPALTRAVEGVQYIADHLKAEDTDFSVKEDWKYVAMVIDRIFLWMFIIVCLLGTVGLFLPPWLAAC
UniProt P12389: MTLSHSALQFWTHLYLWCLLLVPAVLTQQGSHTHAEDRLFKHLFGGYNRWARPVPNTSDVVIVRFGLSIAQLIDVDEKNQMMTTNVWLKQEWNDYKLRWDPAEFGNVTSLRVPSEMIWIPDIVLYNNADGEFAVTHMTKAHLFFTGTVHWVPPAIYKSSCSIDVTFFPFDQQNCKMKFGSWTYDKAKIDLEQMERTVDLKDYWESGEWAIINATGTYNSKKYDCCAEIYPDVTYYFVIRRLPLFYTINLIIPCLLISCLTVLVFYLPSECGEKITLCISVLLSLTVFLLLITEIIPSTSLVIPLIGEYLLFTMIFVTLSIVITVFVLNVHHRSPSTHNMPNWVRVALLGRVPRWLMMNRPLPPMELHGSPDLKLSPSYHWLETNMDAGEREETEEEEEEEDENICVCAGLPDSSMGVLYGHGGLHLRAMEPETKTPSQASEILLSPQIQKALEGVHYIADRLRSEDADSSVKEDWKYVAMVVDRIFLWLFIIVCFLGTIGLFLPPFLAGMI
UniProt P12390: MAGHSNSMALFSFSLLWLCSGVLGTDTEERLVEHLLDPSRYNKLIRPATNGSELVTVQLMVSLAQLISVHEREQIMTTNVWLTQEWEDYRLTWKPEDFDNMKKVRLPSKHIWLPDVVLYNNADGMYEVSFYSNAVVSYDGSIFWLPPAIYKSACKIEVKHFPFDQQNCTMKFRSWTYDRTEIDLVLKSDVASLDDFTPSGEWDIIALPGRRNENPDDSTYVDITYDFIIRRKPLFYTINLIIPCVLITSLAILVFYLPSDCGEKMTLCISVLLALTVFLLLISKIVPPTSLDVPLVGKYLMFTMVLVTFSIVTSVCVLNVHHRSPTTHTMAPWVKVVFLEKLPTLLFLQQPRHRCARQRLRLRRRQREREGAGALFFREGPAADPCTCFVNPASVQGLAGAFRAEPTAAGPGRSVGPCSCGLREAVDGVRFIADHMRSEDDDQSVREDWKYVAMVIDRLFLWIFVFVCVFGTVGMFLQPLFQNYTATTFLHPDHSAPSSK
UniProt P12392: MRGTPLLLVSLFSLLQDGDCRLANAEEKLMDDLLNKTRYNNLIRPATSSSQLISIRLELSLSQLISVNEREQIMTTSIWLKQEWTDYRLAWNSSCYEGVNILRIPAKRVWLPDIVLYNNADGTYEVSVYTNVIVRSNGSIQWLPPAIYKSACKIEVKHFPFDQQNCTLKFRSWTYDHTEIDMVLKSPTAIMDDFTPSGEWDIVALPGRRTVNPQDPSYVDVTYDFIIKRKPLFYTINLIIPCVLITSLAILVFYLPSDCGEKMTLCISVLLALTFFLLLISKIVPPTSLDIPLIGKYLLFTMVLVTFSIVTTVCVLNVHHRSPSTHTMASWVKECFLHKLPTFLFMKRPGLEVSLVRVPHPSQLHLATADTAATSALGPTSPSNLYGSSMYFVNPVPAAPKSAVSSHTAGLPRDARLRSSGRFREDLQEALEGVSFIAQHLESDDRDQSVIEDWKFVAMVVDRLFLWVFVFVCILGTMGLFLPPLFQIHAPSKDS
UniProt P43144: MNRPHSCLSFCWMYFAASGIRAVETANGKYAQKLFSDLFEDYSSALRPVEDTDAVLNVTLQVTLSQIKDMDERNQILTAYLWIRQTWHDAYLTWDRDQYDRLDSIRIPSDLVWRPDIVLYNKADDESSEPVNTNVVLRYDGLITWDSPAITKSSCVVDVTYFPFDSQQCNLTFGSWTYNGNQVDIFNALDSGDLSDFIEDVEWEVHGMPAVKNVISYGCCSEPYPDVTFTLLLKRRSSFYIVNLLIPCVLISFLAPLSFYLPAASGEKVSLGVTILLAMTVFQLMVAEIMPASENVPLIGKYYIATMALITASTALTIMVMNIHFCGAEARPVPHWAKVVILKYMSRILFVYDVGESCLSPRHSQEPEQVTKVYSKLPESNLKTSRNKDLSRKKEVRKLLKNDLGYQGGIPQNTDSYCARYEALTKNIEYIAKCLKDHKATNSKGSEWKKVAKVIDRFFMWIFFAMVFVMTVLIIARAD
UniProt Q9JLB5: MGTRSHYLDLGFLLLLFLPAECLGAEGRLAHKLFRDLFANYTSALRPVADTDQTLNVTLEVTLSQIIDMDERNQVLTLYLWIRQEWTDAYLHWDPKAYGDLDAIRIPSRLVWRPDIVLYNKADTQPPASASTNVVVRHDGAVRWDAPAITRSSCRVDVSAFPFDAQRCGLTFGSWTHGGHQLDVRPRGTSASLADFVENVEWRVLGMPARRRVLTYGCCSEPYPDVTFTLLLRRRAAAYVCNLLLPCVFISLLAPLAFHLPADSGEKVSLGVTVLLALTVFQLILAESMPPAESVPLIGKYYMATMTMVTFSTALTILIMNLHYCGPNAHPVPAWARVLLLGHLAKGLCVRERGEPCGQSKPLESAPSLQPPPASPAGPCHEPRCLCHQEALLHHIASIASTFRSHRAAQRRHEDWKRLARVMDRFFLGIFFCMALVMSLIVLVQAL
UniProt P12391: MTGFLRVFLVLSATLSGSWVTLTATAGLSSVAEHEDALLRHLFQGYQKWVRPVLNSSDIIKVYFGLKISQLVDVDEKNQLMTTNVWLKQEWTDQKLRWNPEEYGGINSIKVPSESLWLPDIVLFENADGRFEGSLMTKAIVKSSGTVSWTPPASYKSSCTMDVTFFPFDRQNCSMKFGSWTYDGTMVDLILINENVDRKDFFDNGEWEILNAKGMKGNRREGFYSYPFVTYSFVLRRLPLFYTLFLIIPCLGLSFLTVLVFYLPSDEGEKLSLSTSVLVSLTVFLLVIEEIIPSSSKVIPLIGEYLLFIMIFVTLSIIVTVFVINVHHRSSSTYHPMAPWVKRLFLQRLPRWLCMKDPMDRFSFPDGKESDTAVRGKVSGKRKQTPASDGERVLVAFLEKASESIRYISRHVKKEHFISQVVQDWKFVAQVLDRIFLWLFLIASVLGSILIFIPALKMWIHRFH
UniProt P43143: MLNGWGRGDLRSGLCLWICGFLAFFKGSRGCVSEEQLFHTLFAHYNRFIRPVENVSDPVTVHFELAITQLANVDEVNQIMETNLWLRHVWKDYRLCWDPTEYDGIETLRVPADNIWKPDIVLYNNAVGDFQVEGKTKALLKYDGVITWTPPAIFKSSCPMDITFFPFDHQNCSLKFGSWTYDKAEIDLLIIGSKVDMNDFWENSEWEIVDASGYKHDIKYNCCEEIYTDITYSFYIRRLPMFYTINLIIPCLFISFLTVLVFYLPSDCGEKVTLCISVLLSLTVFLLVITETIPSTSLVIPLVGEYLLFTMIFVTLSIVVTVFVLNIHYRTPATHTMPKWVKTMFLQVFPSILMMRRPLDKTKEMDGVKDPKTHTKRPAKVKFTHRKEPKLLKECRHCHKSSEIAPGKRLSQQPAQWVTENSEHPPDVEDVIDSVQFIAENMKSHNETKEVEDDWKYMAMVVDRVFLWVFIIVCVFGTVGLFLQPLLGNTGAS
UniProt Q05941: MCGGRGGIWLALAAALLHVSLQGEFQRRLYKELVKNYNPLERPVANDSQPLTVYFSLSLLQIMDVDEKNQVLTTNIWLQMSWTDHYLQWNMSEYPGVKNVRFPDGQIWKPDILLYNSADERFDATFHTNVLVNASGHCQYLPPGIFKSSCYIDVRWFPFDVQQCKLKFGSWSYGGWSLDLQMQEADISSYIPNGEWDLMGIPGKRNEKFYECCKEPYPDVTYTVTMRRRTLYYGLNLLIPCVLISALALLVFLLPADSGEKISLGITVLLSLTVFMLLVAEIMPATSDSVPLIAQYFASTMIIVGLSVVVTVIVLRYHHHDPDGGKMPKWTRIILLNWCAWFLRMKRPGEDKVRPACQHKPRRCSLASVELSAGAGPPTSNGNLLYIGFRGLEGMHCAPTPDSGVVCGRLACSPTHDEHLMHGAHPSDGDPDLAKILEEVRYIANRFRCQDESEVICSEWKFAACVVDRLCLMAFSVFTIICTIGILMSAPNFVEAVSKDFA
UniProt P02712: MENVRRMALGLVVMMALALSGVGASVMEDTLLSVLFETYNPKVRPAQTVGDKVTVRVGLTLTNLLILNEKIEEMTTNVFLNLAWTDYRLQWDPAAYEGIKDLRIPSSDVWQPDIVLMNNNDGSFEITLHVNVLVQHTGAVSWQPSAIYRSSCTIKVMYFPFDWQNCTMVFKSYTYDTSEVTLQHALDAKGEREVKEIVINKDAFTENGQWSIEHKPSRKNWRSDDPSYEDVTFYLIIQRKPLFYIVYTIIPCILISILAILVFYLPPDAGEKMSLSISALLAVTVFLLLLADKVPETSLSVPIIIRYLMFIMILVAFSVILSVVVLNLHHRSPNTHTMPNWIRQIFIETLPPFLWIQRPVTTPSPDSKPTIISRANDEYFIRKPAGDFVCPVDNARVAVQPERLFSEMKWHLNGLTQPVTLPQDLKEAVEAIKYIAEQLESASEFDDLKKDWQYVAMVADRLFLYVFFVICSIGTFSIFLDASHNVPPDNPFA
UniProt P02718: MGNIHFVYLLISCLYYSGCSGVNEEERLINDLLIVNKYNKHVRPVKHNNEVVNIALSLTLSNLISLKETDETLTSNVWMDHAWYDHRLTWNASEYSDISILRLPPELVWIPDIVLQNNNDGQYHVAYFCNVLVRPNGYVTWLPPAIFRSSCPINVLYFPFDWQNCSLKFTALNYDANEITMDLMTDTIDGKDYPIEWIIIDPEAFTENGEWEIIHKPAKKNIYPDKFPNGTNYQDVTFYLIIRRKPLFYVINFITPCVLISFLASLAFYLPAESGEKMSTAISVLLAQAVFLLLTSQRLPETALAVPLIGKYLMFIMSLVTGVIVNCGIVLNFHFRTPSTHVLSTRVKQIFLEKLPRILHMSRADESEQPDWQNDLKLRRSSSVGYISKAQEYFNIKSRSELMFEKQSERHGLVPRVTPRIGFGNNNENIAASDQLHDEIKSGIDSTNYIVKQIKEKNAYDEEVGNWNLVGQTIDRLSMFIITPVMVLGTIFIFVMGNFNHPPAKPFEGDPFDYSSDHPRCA
UniProt P02714: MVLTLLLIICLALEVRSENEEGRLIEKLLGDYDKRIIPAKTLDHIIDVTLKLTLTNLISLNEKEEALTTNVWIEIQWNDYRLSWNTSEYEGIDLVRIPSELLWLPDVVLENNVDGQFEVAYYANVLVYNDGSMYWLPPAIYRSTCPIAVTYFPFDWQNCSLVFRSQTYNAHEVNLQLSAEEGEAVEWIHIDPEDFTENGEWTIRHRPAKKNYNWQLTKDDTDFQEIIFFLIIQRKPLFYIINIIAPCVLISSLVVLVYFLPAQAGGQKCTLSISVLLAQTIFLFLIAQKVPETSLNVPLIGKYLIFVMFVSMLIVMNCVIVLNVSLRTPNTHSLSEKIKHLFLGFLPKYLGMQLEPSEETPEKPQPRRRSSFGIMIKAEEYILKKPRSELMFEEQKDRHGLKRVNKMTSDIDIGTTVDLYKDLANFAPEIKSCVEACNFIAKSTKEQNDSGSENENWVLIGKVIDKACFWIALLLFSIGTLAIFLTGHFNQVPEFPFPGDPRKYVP

What was measured:
[1] = target: Neuronal acetylcholine receptor (Rattus norvegicus) (UniProt P04757+P09483+P12389+P12390+P12392+P43144+Q9JLB5+P12391+P43143+P20420+Q05941); assay: Potency relative to PHT in rat brain membranes ([3H]MCC binding)
[2] = target: Acetylcholine receptor (Torpedo californica) (UniProt P02710+P02712+P02718+P02714); assay: Potency relative to PHT in torpedo electroplax membranes ([3H]MCC binding)

## c1cc2c(cn1)C1CCC(CC2)N1 (stereo not drawn)
[1]
  Relative potency: 1
[2]
  Relative potency: 1

## CC(=O)C1=CCCC2CCC1N2 (stereo not drawn)
[1]
  Relative potency: 1
[2]
  Relative potency: 1

## Cc1nccc2c1C1CCC(CC2)N1 (stereo not drawn)
[1]
  Relative potency: 0.014
[2]
  Relative potency: 0.0003

## CN1C2CCc3ccncc3C1CC2 (stereo not drawn)
[1]
  Relative potency: 0.0033
[2]
  Relative potency: 0.0005
